Reference: PubChem BioAssay AID504761 (Drosophila RNAi Screening Center, 2011)
Test: 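Insect host genes that dengue virus relies on to spread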 (primary screen). System: D.Mel-2 cells from Drosophila. Knock-down reagent: long dsRNA against Drosophila genes. Treatment: infection with dengue virus type 2; dose and infection time not stated. Read-out: 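Cells stained for dengue envelope protein and imaged; percent of infected cells per well on duplicate plates, ranked by infection, with stained nuclei counted for cell number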. Reading the numbers: infection score: higher = more virus-infected cells; cell count: higher = more cells in the well. Hit rule: 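Low infection ranks in the two replicates (chance level up to 0.065) followed by a retest with a 1.5-fold or larger significant decrease, p below 0.05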. Meaning of the calls: active = confirmed: knock-down lowers infection; inactive = not picked or not confirmed.
The deposit covers about 22,000 reagents; below is a random part of those that have a named target and a result. Of all reagents, 116 (0.52%) were called active. 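Calls depend on retest data that are not deposited; infection was ranked per plate without normalising between plates; the unit of the infection score is not given.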 Raw values are not corrected between plates. Reagents against one gene are numbered here. The record does not give: the amount of reagent, the time to read-out.

no.	target gene	dsRNA no.	infection score, replicate 1	infection score, replicate 2	cell count, replicate 1	cell count, replicate 2	Outcome
1	CG11436	1	4.74	3.12	5065	5642	inactive
2	CG33299	1	5.21	0.42	6045	5989	inactive
3	Pif1 (Pif1 DNA helicase)	1	3.4	3.09	6501	6182	inactive
4	Dh31-R (Diuretic hormone 31 Receptor)	1	28	1.39	1937	789	inactive
5	Dh31-R (Diuretic hormone 31 Receptor)	2	4.42	6.33	6356	6242	inactive
6	CG15930	1	2.31	3.06	6419	6309	inactive
7	CG15930	2	12.6	20.5	3071	5116	inactive
8	CG13653	1	3.24	1.03	6549	6587	inactive
9	CG5554	1	4.35	5.52	6752	6471	inactive
10	CG5554	2	4.82	11.5	6188	6028	inactive
11	Hcf (Host cell factor)	1	7.17	7.04	5589	6067	inactive
12	ro (rough)	1	2.75	2.35	6249	6677	inactive
13	ro (rough)	2	1.09	3.62	5947	6188	inactive
14	CG16879 (retired record)	1	9.32	14.8	5947	6647	inactive
15	CG16879 (retired record)	2	2.17	2.16	6141	6530	inactive
16	CG9215	1	5.1	9.69	5916	6399	inactive
17	ppk11 (pickpocket 11)	1	6.96	7.01	5700	6349	inactive
18	Cth (Cystathionine gamma-lyase)	1	7.68	13.9	6014	6001	inactive
19	Ubc7 (Ubiquitin conjugating enzyme 7)	1	5.81	2.24	3184	3120	inactive
20	RanBP3 (Ran binding protein 3)	1	1.62	2.81	6592	6723	inactive
21	RanBP3 (Ran binding protein 3)	2	2.68	8.04	6574	6516	inactive
22	CG8086	1	3.11	0.68	6339	6664	inactive
23	CG8086	2	4.79	11.3	5947	5577	inactive
24	CG8086	3	1.61	5.28	6850	6672	inactive

2 entries already listed, arranged by “cell count, replicate 2”, low to high.
target gene	dsRNA no.	infection score, replicate 1	infection score, replicate 2	cell count, replicate 1	cell count, replicate 2	Outcome
CG9215	1	5.1	9.69	5916	6399	inactive
CG16879 (retired record)	2	2.17	2.16	6141	6530	inactive
